Data as given in publication PMC4479931, “The Disulfide Bond Cys255-Cys279 in the Immunoglobulin-Like Domain of Anthrax Toxin Receptor 2 Is Required for Membrane Insertion of Anthrax Protective Antigen Pore” (2015).

Biological target: protective antigen PA63 heptamer, (PA63)7 (heptameric prepore) (Bacillus anthracis)

Q: Which stoichiometry N does the source give for “protective antigen PA63 heptamer, (PA63)7 (heptameric prepore)” here?
A: 7
